Measured values reported in patent publication US20240409617A1.

Biological target: SARS-CoV-2 spike protein on stably transduced 293T cells (SARS-CoV-2)
Experiment: cell-based or functional assay

Human ACE2, soluble, his tag (from UniProt Q9BYF1 18-740) (receptor)
spike shedding time course, intensity relative to binding at T5: 50%
